These results are taken from patent EP2143422A1, “Ophthalmic compositions containing gemifloxacin for the treatment of ocular infections” (S.I.F.I - SOCIETÀ INDUSTRIA FARMACEUTICA ITALIANA - S.P.A., priority 2008, dated 2010).

Structures are written as SMILES. Some results are limits rather than exact numbers.

This series can be described thus: In vivo pharmacokinetic test: ocular tissue distribution after single ophthalmic administration. Also noted: species or system pigmented rabbits. The procedure:
The penetration capacity of gemifloxacin was determined in the cornea, conjunctiva, aqueous humour and iris-ciliary body after single ophthalmic administration (30 µl) of the solution at 0.3% in both eyes of pigmented rabbits. The tissues were collected at the following times: 15 minutes, 30 minutes, 1, 2, 4, 8, 12, 24 and 48 hours. Quantitative analysis of the samples was carried out by a LC/MS/MS method after suitable extraction of the active principle from the tissue and expressed as µg/g or µg/ml of tissue.

Where [1] appears, read: inhibition quotient = Cmax in tissue/MIC90 for St. aureus, single administration of 0.3% solution.

`CO/N=C1\CN(c2nc3c(cc2F)c(=O)c(C(=O)O)cn3C2CC2)CC1CN` (racemic) [Gemifloxacin, (R,S)-7-(3-aminomethyl-4-methoxyiminopyrrolidin-1yl)-1-cyclopropyl-6-fluoro-4-oxo-1,4-dihydro-1,8-naphthyridin-3-carboxylic acid]: where the note is “inhibition quotient (tissue concentration/MIC90), single administration”, the “IQs in the various tissues” value is on record as above 1. Under setting [1], this compound had an IQconjunctiva of 15.3, an IQcornea of 41.1 and an IQiris-ciliary body of 7.2.
